The text below walks through data of paper PMC4627656, “Combining Metabolite-Based Pharmacophores with Bayesian Machine Learning Models for Mycobacterium tuberculosis Drug Discovery” (PLoS ONE, 2015).

Each structure is given as a SMILES string. “And” between values parts separate entries of the source, which are not always exact repeats. Equal values may be shown once. Some results are limits rather than exact numbers.

The test system of this series is Vero cells. The note with it: Vero CC50 / Mtb MIC.
Consider `CC(=O)c1c(C)[n+]([O-])c2ccc(Cl)cc2[n+]1[O-]` [SRI4], for which the “SI = CC50/MIC” value is reported as > 8.
The same measure for `Cc1c(C(=O)c2cccnc2)[n+]([O-])c2cc(Cl)c(Cl)cc2[n+]1[O-]` [SRI55]: > 16; for `CC(C)=CCCC(=O)c1c(C)[n+]([O-])c2cc(Cl)c(Cl)cc2[n+]1[O-]` [SRI57]: > 32 and > 33.33.
As for `Cc1c(C(=O)C2CC2)[n+]([O-])c2cc(Cl)c(Cl)cc2[n+]1[O-]` [SRI58], the “SI = CC50/MIC” value is > 32 and > 33.33.
